The values that follow are results of earlier work, collected in paper PMC3621123 (Journal of medicinal chemistry, 2013).

Amino acid sequences for entries named in this document (tags omitted). A change or cut given only in a name is not applied to a line headed by its entry.
UniProt P71716: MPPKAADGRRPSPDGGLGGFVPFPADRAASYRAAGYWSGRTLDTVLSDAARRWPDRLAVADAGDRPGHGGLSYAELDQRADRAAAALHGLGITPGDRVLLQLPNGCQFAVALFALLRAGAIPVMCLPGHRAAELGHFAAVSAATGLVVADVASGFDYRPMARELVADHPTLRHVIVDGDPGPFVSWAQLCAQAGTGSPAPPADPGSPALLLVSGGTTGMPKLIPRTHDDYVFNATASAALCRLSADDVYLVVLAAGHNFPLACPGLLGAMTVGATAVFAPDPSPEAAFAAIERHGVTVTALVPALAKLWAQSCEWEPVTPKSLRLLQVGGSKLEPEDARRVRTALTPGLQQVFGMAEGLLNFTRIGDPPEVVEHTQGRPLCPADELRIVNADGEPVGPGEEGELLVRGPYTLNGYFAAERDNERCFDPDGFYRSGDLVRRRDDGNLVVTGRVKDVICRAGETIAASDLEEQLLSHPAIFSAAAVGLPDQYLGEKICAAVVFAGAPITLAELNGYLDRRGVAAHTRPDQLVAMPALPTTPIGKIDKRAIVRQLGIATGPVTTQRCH

pKd: −log10 of the molar value.

The target in the series is MbtA (Mycobacterium tuberculosis, UniProt P71716). The note with it: read-out: KD1, equilibrium dissociation constant of probe 14 for MbtA; cited from earlier work.

As for “22-O-{2-[2-(2-{[(fluorescein-5-yl)carbonyl]amino}ethoxy)ethoxy]ethoxy}-52-O-[N-(salicyl)sulfamoyl]adenosine [Compound 14]”, the pKd is 8.03.
